Test system: HEK 293FT cells
Experiment: Cell toxicity assay (MTT)
Type: cell-based, human
Conditions: 0.1 μM MTX vs no MTX

| SMILES | increase in the effective concentration |
| --- | --- |
| COc1ccc(C=C2C(=O)NC(=O)NC2=O)c(OC)c1 [4B] | 1.5–2 fold |
| COc1cc(C=C2C(=O)NC(=O)NC2=O)cc(Cl)c1OC [4F] | 1.5–2 fold |
